Assay results taken from paper PMC5934441 (2018).

T1: recombinant ECTV CrmD (cytokine response modifier D), C-terminally tagged with V5 and 6xHis (ectromelia virus (ECTV))
T1 chain: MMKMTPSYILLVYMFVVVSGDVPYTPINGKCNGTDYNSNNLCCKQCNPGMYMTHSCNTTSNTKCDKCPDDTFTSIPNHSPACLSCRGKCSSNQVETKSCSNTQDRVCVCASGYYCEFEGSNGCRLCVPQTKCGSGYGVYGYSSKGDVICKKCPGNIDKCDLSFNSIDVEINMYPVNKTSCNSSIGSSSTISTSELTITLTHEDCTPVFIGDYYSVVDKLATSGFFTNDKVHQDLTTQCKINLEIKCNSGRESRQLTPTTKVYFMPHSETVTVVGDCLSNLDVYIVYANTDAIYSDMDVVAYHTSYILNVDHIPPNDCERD


Columns and labels:
[1] = target: T1, recombinant ECTV CrmD (cytokine …); test: SPR
[2] = target: T1, recombinant ECTV CrmD (cytokine …); test: SPR

Binder | koff [1] [s⁻¹] | Kd [2] [nM]
mouse Cxcl14 (ligand) SKCKCSRKGPKIRYSDVKKLEMKPKYPHCEEKMVIVTTKSMSRYRGQEHCLHPKLQSTKRFIKWYNAWNEKRRVYEE | 0.041 | 40.2
mouse Ccl25 (ligand) QGAFEDCCLGYQHRIKWNVLRHARNYHQQEVSGSCNLRAVRFYFRQKVVCGNPEDMNVKRAMRILTARKRLVHWKSASDSQTERKKSNHMKSKVENPNSTSVRSATLGHPRMVMMPRKTNN | 0.00197 | 4.86
mouse Cxcl13 (ligand) ILEAHYTNLKCRCSGVISTVVGLNIIDRIQVTPPGNGCPKTEVVIWTKMKKVICVNPRAKWLQRLLRHVQSKSLSSTPQAPVSKRRAA | 0.00212 | 13.2
mouse Cxcl11 (ligand) FLMFKQGRCLCIGPGMKAVKMAEIEKASVIYPSNGCDKVEVIVTMKAHKRQRCLDPRSKQARLIMQAIEKKNFLRRQNM | 0.00242 | 4.87
mouse Ccl24 (ligand) VTIPSSCCTSFISKKIPENRVVSYQLANGSICPKAGVIFITKKGHKICTDPKLLWVQRHIQKLDAKKNQPSKGAKAVRTKFAVQRRRGNSTEV | 0.00287 | 9
